Experimental data published in paper PMC10513286, “A serpin gene from a parasitoid wasp disrupts host immunity and exhibits adaptive alternative splicing” (2023).

Biological target: Recombinant PrPAP1Xa (activated PrPAP1) (Pieris rapae)

Substance | stoichiometry of inhibition (SI) of PrPAP1
PpSerpin-1A (Pteromalus puparum serpin 1, isoform A), recombinant (natural protein) | 13.4
PpSerpin-1P (Pteromalus puparum serpin 1, isoform P), recombinant (natural protein) | 197
